PubChem BioAssay AID1259414 | Drosophila RNAi Screening Center | 2018
Screen: 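Host factors increasing or decreasing Wolbachia levels in cultured fly cells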 (primary screen). Cells: Drosophila JW18 cells infected with Wolbachia. Knock-down reagent: long dsRNA against Drosophila genes, 0.25 µg dsRNA per well of a 384-well plate. Timing: 5 days. Conditions: cells persistently infected with Wolbachia before knock-down; no added drug. Detection: 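Automated imaging of bacterial rRNA staining divided by host cell count, reported as plate-normalised robust z-score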. Scale: Wolbachia per cell robust z: higher = more Wolbachia per host cell than the plate typical. Rule for the call: 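Hit when robust z is 1.5 or more, or -1.5 or less, in at least two of three replicates; excludes dsRNAs with several or no targets, genes not expressed in JW18 and well A1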.
In all, the deposit lists about 24,000 reagents; shown is an unselected part of those with a known target gene and a result. Of all reagents, about 1,210 (5%) are marked active. 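Inactive calls also include excluded dsRNAs with several or no targets, genes unexpressed in JW18, and well A1, regardless of score.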 Unmarked entries are inactive. Reagents against one gene are numbered here. No sequences are given here.

Def (Defensin) gave Wolbachia per cell robust z, rep 1 = 0.19; Wolbachia per cell robust z, rep 2 = 0.72; Wolbachia per cell robust z, rep 3 = -3.35.
Tsp42Eq (Tetraspanin 42Eq) scored Wolbachia per cell robust z, rep 1 = -2.65; Wolbachia per cell robust z, rep 2 = 1; Wolbachia per cell robust z, rep 3 = -0.224.
Cubn (Cubilin) #1 scored Wolbachia per cell robust z, rep 1 = 0.325; Wolbachia per cell robust z, rep 2 = 1.16; Wolbachia per cell robust z, rep 3 = 2.32.
Knock-down of Cubn (Cubilin) #2 came out at: Wolbachia per cell robust z, rep 1 = 1.1; Wolbachia per cell robust z, rep 2 = 0.271; Wolbachia per cell robust z, rep 3 = 0.0949.
For Golgin104 (Golgin 104) #1, the entry reads Wolbachia per cell robust z, rep 1 = 0.162; Wolbachia per cell robust z, rep 2 = -0.866; Wolbachia per cell robust z, rep 3 = -1.04.
Knock-down of Golgin104 (Golgin 104) #2 gave: Wolbachia per cell robust z, rep 1 = -0.547; Wolbachia per cell robust z, rep 2 = -0.377; Wolbachia per cell robust z, rep 3 = 0.75.
Silencing of drd (drop dead) #1 came out at: Wolbachia per cell robust z, rep 1 = 0.663; Wolbachia per cell robust z, rep 2 = 1.34; Wolbachia per cell robust z, rep 3 = 0.308.
With knock-down of drd (drop dead) #2, the screen gave Wolbachia per cell robust z, rep 1 = 0.718; Wolbachia per cell robust z, rep 2 = 0.833; Wolbachia per cell robust z, rep 3 = 0.794.
After knock-down of drd (drop dead) #3 the results were Wolbachia per cell robust z, rep 1 = -0.76; Wolbachia per cell robust z, rep 2 = -0.57; Wolbachia per cell robust z, rep 3 = -0.0301.
After knock-down of qua (quail), the record shows Wolbachia per cell robust z, rep 1 = -0.268; Wolbachia per cell robust z, rep 2 = -1.2; Wolbachia per cell robust z, rep 3 = -0.694.

Ordered by “Wolbachia per cell robust z, rep 2” (high to low): 3 of the entries above
Cubn (Cubilin) #1: Wolbachia per cell robust z, rep 1 = 0.325; Wolbachia per cell robust z, rep 2 = 1.16; Wolbachia per cell robust z, rep 3 = 2.32
Cubn (Cubilin) #2: Wolbachia per cell robust z, rep 1 = 1.1; Wolbachia per cell robust z, rep 2 = 0.271; Wolbachia per cell robust z, rep 3 = 0.0949
Golgin104 (Golgin 104) #1: Wolbachia per cell robust z, rep 1 = 0.162; Wolbachia per cell robust z, rep 2 = -0.866; Wolbachia per cell robust z, rep 3 = -1.04

Further results follow:
After knock-down of trp (transient receptor potential), the record shows Wolbachia per cell robust z, rep 1 = -4.17; Wolbachia per cell robust z, rep 2 = -0.181; Wolbachia per cell robust z, rep 3 = 0.27.
Depletion of ATPsyndelta (ATP synthase, delta subunit) resulted in: Wolbachia per cell robust z, rep 1 = -0.268; Wolbachia per cell robust z, rep 2 = -2.17; Wolbachia per cell robust z, rep 3 = 0.0685.
For CG43342 the deposit lists Wolbachia per cell robust z, rep 1 = -1.22; Wolbachia per cell robust z, rep 2 = -2.08; Wolbachia per cell robust z, rep 3 = -1.23.
Knock-down of CG12481 came out at: Wolbachia per cell robust z, rep 1 = -1.26; Wolbachia per cell robust z, rep 2 = 0.529; Wolbachia per cell robust z, rep 3 = 0.318.
After knock-down of TM9SF2 (Transmembrane 9 superfamily protein member 2) the results were Wolbachia per cell robust z, rep 1 = 1.54; Wolbachia per cell robust z, rep 2 = 0.828; Wolbachia per cell robust z, rep 3 = 1.
Silencing of Dscam3 (Down syndrome cell adhesion molecule 3) #1 came out at: Wolbachia per cell robust z, rep 1 = 0.807; Wolbachia per cell robust z, rep 2 = 1.22; Wolbachia per cell robust z, rep 3 = 0.482.
After knock-down of Dscam3 (Down syndrome cell adhesion molecule 3) #2, the record shows Wolbachia per cell robust z, rep 1 = -0.801; Wolbachia per cell robust z, rep 2 = 1.08; Wolbachia per cell robust z, rep 3 = 0.662.
Silencing of CG32181 #1 came out at: Wolbachia per cell robust z, rep 1 = 0.429; Wolbachia per cell robust z, rep 2 = 0.853; Wolbachia per cell robust z, rep 3 = 1.33.
CG32181 #2 showed Wolbachia per cell robust z, rep 1 = 0.0642; Wolbachia per cell robust z, rep 2 = -0.0497; Wolbachia per cell robust z, rep 3 = -0.994.
After knock-down of Golgin245 (Golgin-245) #1, the screen gave Wolbachia per cell robust z, rep 1 = -0.17; Wolbachia per cell robust z, rep 2 = 0.207; Wolbachia per cell robust z, rep 3 = -2.14.
Depletion of Golgin245 (Golgin-245) #2 came out at: Wolbachia per cell robust z, rep 1 = 0.361; Wolbachia per cell robust z, rep 2 = 0.738; Wolbachia per cell robust z, rep 3 = 0.317.
Knock-down of Golgin245 (Golgin-245) #3 resulted in: Wolbachia per cell robust z, rep 1 = 0.0694; Wolbachia per cell robust z, rep 2 = -0.88; Wolbachia per cell robust z, rep 3 = 0.905.
Against CG32719 #1, the entry reads Wolbachia per cell robust z, rep 1 = -0.0433; Wolbachia per cell robust z, rep 2 = -0.403; Wolbachia per cell robust z, rep 3 = -0.329.
CG32719 #2 scored Wolbachia per cell robust z, rep 1 = -5.61; Wolbachia per cell robust z, rep 2 = 0.985; Wolbachia per cell robust z, rep 3 = -1.02.
